Results of unrelated studies side by side (data: NIAID ChemDB).

Shared fields: tests on isolated targets; species: HIV-1; protein: Protease

Blank or dashed fields: not listed here.

SMILES,mutations,read by,endpoint,tested at,result
CC(C)[C@H](NC(=O)OCc1ccccc1)C(=O)N[C@@H](Cc1ccccc1)[C@H](O)[C@H](Cc1ccccc1)NC(=O)[C@@H](NC(=O)c1cccnc1)C(C)C,,fluorescence,inhibition,0.0025 µM,59%
CN1[C@H](COc2ccccc2)[C@H](O)[C@@H](O)[C@@H](COc2ccccc2)N(C)S1(=O)=O,PR-I84V,,fold resistance,,28.2
Cc1cc(SC2=C(O)C[C@@](CCc3ccc(N)cc3)(C(C)C)OC2=O)c(C(C)(C)C)cc1CO,PR-V82F I84V,HPLC / absorbance,fold resistance,,5.3
CC(C)[C@H](NC(=O)N(C)Cc1ccccn1)C(=O)N[C@@H](Cc1ccccc1)[C@H](O)[C@@H](O)[C@H](Cc1ccccc1)NC(=O)[C@@H](NC(=O)N(C)Cc1ccccn1)C(C)C,PR-R8Q,fluorescence,fold resistance,,93.5
Cc1cc(SC2=C(O)C[C@@](CCc3ccc(O)cc3)(C(C)C)OC2=O)c(C(C)(C)C)cc1CO,PR-G48V L90M,HPLC / absorbance,fold resistance,,18.6
CC(C)CN(C[C@@H](O)[C@H](Cc1ccccc1)NC(=O)[C@H](CC(N)=O)NC(=O)c1ccc2ccccc2n1)C(=O)NC(C)(C)C,PR-A71T V82A,HPLC,fold resistance,,1.5
CC(C)CC(NC(=O)[C@@H](NC(=O)OCc1ccccc1)C(C)C)C(=O)C(F)(F)C(NC(=O)[C@@H](NC(=O)OCc1ccccc1)C(C)C)C(C)C,,fluorescence,inhibition,0.001 µM,62%
CNC(=O)CN1[C@H](COc2ccccc2)[C@H](O)[C@@H](O)[C@@H](COc2ccccc2)N(CC(=O)NC)S1(=O)=O,PR-I84V,,fold resistance,,3.32
Cc1cc(SC2=C(O)CC(CCc3ccc(O)cc3)(C3CCCCC3)OC2=O)c(C(C)(C)C)cc1CO,PR-V82F,HPLC / absorbance,fold resistance,,26
O=S1(=O)N(Cc2cccc(-c3cccs3)c2)[C@H](COc2ccccc2)[C@H](O)[C@@H](O)[C@@H](COc2ccccc2)N1Cc1cccc(-c2cccs2)c1,PR-I84V,,fold resistance,,37.7
CC(C)[C@H](NC(=O)OCc1ccccc1)C(=O)N[C@@H](CSc1ccccn1)[C@@H](O)[C@H](O)[C@H](CSc1ccccn1)NC(=O)[C@@H](NC(=O)OCc1ccccc1)C(C)C,,fluorescence,inhibition,0.01 µM,30%
COC(=O)c1ccc(CN2[C@H](COc3ccccc3)[C@H](O)[C@@H](O)[C@@H](COc3ccccc3)N(Cc3ccc(C(=O)OC)cc3)S2(=O)=O)cc1,PR-I84V,,fold resistance,,17.9
CC(C)(C)OC(=O)N[C@@H](Cc1ccccc1)[C@@H](O)C[C@@H](Cc1ccc(OCCN2CCOCC2)cc1)C(=O)N[C@H]1c2ccccc2C[C@H]1O,PR-R8Q,fluorescence,fold resistance,,2.75
N[C@@H](Cc1ccccc1)C(O)[C@@H](N)Cc1ccccc1,,fluorescence,inhibition,50 µM,75%
CC(C)[C@H](NC(=O)N(C)Cc1ccccn1)C(=O)N[C@@H](Cc1ccccc1)[C@H](O)[C@H](O)[C@H](Cc1ccccc1)NC(=O)[C@@H](NC(=O)N(C)Cc1ccccn1)C(C)C,PR-V82A,HPLC,fold resistance,,5
CNC(=O)[C@@H](NC(=O)[C@H](OCc1ccccc1)[C@H](O)[C@@H](O)[C@@H](OCc1ccccc1)C(=O)N[C@H]1c2ccccc2C[C@H]1O)C(C)C,PR-G48V L90M,,fold resistance,,27.8
CC(C)[C@H](NC(=O)Cc1ccccn1)C(=O)N[C@@H](Cc1ccccc1)[C@@H](O)[C@H](O)[C@H](Cc1ccccc1)NC(=O)[C@@H](NC(=O)Cc1ccccn1)C(C)C,,fluorescence,inhibition,0.005 µM,62%

The last 3 rows once more:

SMILES | mutations | read by | endpoint | tested at | result
CC(C)[C@H](NC(=O)N(C)Cc1ccccn1)C(=O)N[C@@H](Cc1ccccc1)[C@H](O)[C@H](O)[C@H](Cc1ccccc1)NC(=O)[C@@H](NC(=O)N(C)Cc1ccccn1)C(C)C | PR-V82A | HPLC | fold resistance |  | 5
CNC(=O)[C@@H](NC(=O)[C@H](OCc1ccccc1)[C@H](O)[C@@H](O)[C@@H](OCc1ccccc1)C(=O)N[C@H]1c2ccccc2C[C@H]1O)C(C)C | PR-G48V L90M |  | fold resistance |  | 27.8
CC(C)[C@H](NC(=O)Cc1ccccn1)C(=O)N[C@@H](Cc1ccccc1)[C@@H](O)[C@H](O)[C@H](Cc1ccccc1)NC(=O)[C@@H](NC(=O)Cc1ccccn1)C(C)C |  | fluorescence | inhibition | 0.005 µM | 62%

Percent inhibition refers to the dose given; in toxicity tests it is the harm to the cells. Lines come from different laboratories, so protocols vary. Fold resistance has wild type as its base.